A mixed list of measured activities; the numbers were collected in NIAID ChemDB.

Shared fields: enzyme or target tests

Percent inhibition refers to the dose given; in toxicity tests it is the harm to the cells. Rows are shuffled and stem from different studies. ICn is the concentration giving n% inhibition. Blank or dashed fields: not listed here.

structure,read-out,tested at,protein,organism,method,strain,value
CCN(C(=O)N1C[C@H](N)[C@](O)(C(=O)O)C1)C(C)C,Ki,,Neuraminidase,Influenza B virus,,Memphis/3/89,210 µM
O=C(NO)c1ccc[nH]c1=O,IC50,,RNA-dependent RNA polymerase,Influenza A virus,,,>6500 µM
C[C@H](CO)[C@@H](OC(=O)N(C1CCCCC1)C1CCCCC1)[C@@H]1OC(C(=O)O)=C[C@H](N)[C@H]1NC(=O)O,IC50,,Sialidase,Influenza B virus,,Victoria,40 µM
CCCCCCCCCCCCCCCCCC(=O)OC[C@@H](COP(=O)(O)OCCNCCO[C@@]1(C(=O)O)O[C@@H]([C@H](O)[C@H](O)CO)[C@H](NC(C)=O)[C@@H](O)[C@H]1F)OC(=O)CCCCCCCCCCCCCCCCC,IC50,,Sialidase,Influenza A virus,,H1N1 A/PR/8/34,31.3 µM
C[C@H](CO)[C@@H](OC(=O)NCCCCCCN)[C@@H]1OC(C(=O)O)=C[C@H](N=C(N)N)[C@H]1NC(=O)O,IC50,,Sialidase,Influenza B virus,,Victoria,0.12 µM
O=C(O)c1ncccc1O,IC50,,RNA-dependent RNA polymerase,Influenza A virus,,,>7500 µM
C[C@H](CO)[C@@H](OC(N)=O)[C@@H]1OC(C(=O)O)=C[C@H](N=C(N)N)[C@H]1NC(=O)O,IC50,,Sialidase,Influenza B virus,,Victoria,0.004 µM
O=C(NO)c1ncc[nH]c1=O,IC50,,RNA-dependent RNA polymerase,Influenza A virus,,,>6500 µM
CC(C)/C=C1\N=C(CC(C)C)C(=O)N(O)C1=O,IC50,,RNA polymerase II,Influenza A virus,,A/PR/8/34,>50 µM
O=C(NO)c1cc(=O)c2ccccc2[nH]1,IC50,,RNA-dependent RNA polymerase,Influenza A virus,,,700 µM
CC(=O)N[C@H]1[C@H](Oc2cccc3ccccc23)O[C@H](OS(=O)(=O)O)[C@@H](O)[C@@H]1O,IC50,,Sialidase,Influenza A virus,fluorescence,H3N2 MEMPH/1/71,10 µM
CC(C)(C)c1cc(Cl)c(O)c(C(N)C(=O)O)c1,Ki,,Neuraminidase,Influenza B virus,,Memphis/3/89,690 µM
O=C(NO)c1c[nH]ccc1=O,IC50,,RNA-dependent RNA polymerase,Influenza A virus,,,>6500 µM
C[C@H](CO)[C@@H](OC(=O)N(CCCN)CCCCN)[C@@H]1OC(C(=O)O)=C[C@H](N=C(N)N)[C@H]1NC(=O)O,IC50,,Sialidase,Influenza B virus,,Victoria,0.62 µM
CCC(CC)O[C@@H]1C=C(C(=O)O)CC[C@H]1NC(C)=O,IC50,,Influenza virus sialidases,Influenza B virus,fluorescence,Victoria,0.83 µM
CCCO[C@@H]1O[C@H](OS(=O)(=O)O)[C@@H](O)[C@H](O)[C@H]1NC(C)=O,IC50,,Sialidase,Influenza A virus,fluorescence,H3N2 MEMPH/1/71,11 µM
CC(=O)N[C@H](CC(=O)C(=O)O)[C@@H](O)[C@H](O)[C@H](O)CO,Ki,,Neuraminidase,Influenza A virus,,,300 µM
O=c1[nH]c2cc3ccccc3cc2c(=O)n1O,IC50,,RNA-dependent RNA polymerase,Influenza A virus,,,>50 µM
CCCCCCCCCCCCC/C=C/[C@@H](O)[C@H](CO[C@@H]1O[C@H](CO)[C@H](O)[C@H](OS(=O)(=O)O)[C@H]1O)NC(=O)CCCCCCCCCCCCCCCCCCCCCCC,inhibition,200 µM,Sialidase,Influenza A virus,,H3N2 A/TEXAS/1/77,98.4%
CCN(CC)C(=O)[C@@H]1C=C(C(=O)O)CC[C@H]1NC(C)=O,IC50,,Influenza virus sialidases,Influenza B virus,fluorescence,Victoria,23 µM
CC(=O)N[C@H]1[C@H](Oc2ccc([N+](=O)[O-])cc2)O[C@H](OS(=O)(=O)O)[C@@H](O)[C@@H]1O,IC50,,Sialidase,Influenza A virus,fluorescence,H3N2 MEMPH/1/71,2800 µM
C[C@H](CO)[C@@H](OC(=O)NCCO[C@@H]1O[C@@H](CO)[C@H](O)[C@@H](O)[C@H]1O)[C@@H]1OC(C(=O)O)=C[C@H](N=C(N)N)[C@H]1NC(=O)O,IC50,,Sialidase,Influenza B virus,,Victoria,0.16 µM

2 of the rows above, restated:

O=C(NO)c1c[nH]ccc1=O ; read-out: IC50 ; protein: RNA-dependent RNA polymerase ; organism: Influenza A virus ; value: >6500 µM
CC(C)(C)c1cc(Cl)c(O)c(C(N)C(=O)O)c1 ; read-out: Ki ; protein: Neuraminidase ; organism: Influenza B virus ; strain: Memphis/3/89 ; value: 690 µM